Results published in patent US20130137706A1, “Antimicrobial Molecules For Treating Multi-Drug Resistant and Extensively Drug Resistant Strains Of Mycobacterium” (POLYMEDIX, INC., priority 2008, published 2013).

System: M. tuberculosis (H37Rv strain)
Test: Microplate Alamar Blue Assay (MABA) susceptibility assay in BACTEC 12B medium
Assay type: cell-based, Mycobacterium tuberculosis
Settings: for SI (EC50/IC90): EC50 VERO cells divided by IC90 M. tuberculosis H37Rv

## CC(C)(C)c1cc(N)c(SCCNC(=N)N)c(NC(=O)c2cc(C(=O)Nc3cc(C(C)(C)C)cc(N)c3SCCNC(=N)N)c(OCCNC(=N)N)cc2OCCNC(=N)N)c1 [Compound 2]
  SI (EC50/IC90): >66.7

## CC(C)(C)c1cc(NC(=O)CCCCNC(=N)N)c(SCCN)c(NC(=O)Nc2cc(C(C)(C)C)cc(NC(=O)CCCCNC(=N)N)c2SCCN)c1 [Compound 4]
  SI (EC50/IC90): >16.3
Summary of Table 1, EC50/IC90
  SI value: greater than 15

## CC(C)(C)c1cc(N)c(SCCNC(=N)N)c(NC(=O)c2cc(OCCNC(=N)N)cc(C(=O)Nc3cc(C(C)(C)C)cc(N)c3SCCNC(=N)N)c2)c1 [Compound 1]
  SI (EC50/IC90): >136.4

## N=C(N)NCCCCC(=O)Nc1cccc(NC(=O)c2cc(C(=O)Nc3cccc(NC(=O)CCCCNC(=N)N)c3SCCN)ncn2)c1SCCN [Compound 3]
  SI (EC50/IC90): >27.8
